According to US20180142000:

Target: C. jejuni (strain 81-176) flagella, Campylobacter jejuni strain 81-176

Question: For FlagV1P, which fold increase in functional affinity against FlagV1M is on record?
Answer: Its fold increase in functional affinity against FlagV1M is 400 fold.
